{"source": "paper PMC8420505", "about": "“Identification of lectin receptors for conserved SARS‐CoV‐2 glycosylation sites” (2021)", "key": {"[1]": {"molecular_target": "stabilized full‐length trimeric pre‐fusion SARS‐CoV‐2 Spike protein (Spike‐H6) (SARS‐CoV‐2) (UniProt P0DTC2)", "experiment": "single-molecule force spectroscopy (AFM)"}, "[2]": {"molecular_target": "stabilized full‐length trimeric pre‐fusion SARS‐CoV‐2 Spike protein (Spike‐H6) (SARS‐CoV‐2) (UniProt P0DTC2)", "experiment": "SPR"}, "[3]": {"molecular_target": "stabilized full‐length trimeric pre‐fusion SARS‐CoV‐2 Spike protein (Spike‐H6) (SARS‐CoV‐2) (UniProt P0DTC2)", "experiment": "high-speed AFM"}}, "data": [{"substance": "human CLEC4G‐hIgG1 Fc‐fusion protein (from UniProt Q6UXB4) (Fc fusion)", "values": [{"measurement": "koff", "setting": "[1]", "result": 0.007, "unit": "s⁻¹"}]}, {"substance": "mouse CD209c carbohydrate recognition domain - mouse IgG2a‐Fc fusion protein (from UniProt Q91ZW9 1-178)", "values": [{"measurement": "Kd,1 (first binding step, bivalent analyte model)", "setting": "[2]", "result": 0.988, "unit": "µM"}, {"measurement": "ka,1 (first binding step, bivalent analyte model)", "setting": "[2]", "result": 16100, "unit": "M⁻¹ s⁻¹"}, {"measurement": "kd,1 (first binding step, bivalent analyte model)", "setting": "[2]", "result": 0.0159, "unit": "s⁻¹"}, {"measurement": "stoichiometry N (lectin molecules per Spike trimer)", "setting": "[3]", "result": 5.2}, {"measurement": "koff", "setting": "[1]", "result": 0.041, "unit": "s⁻¹"}]}, {"substance": "mouse Clec4g carbohydrate recognition domain - mouse IgG2a‐Fc fusion protein (from UniProt Q8BNX1 1-294)", "values": [{"measurement": "Kd,1 (first binding step, bivalent analyte model)", "setting": "[2]", "result": 1.62, "unit": "µM"}, {"measurement": "ka,1 (first binding step, bivalent analyte model)", "setting": "[2]", "result": 61700, "unit": "M⁻¹ s⁻¹"}, {"measurement": "kd,1 (first binding step, bivalent analyte model)", "setting": "[2]", "result": 0.0997, "unit": "s⁻¹"}, {"measurement": "stoichiometry N (lectin molecules per Spike trimer)", "setting": "[3]", "result": 3.2}, {"measurement": "koff", "setting": "[1]", "result": 0.037, "unit": "s⁻¹"}]}]}
